“And” between values parts separate entries of the source, which are not always exact repeats. Equal entries are not always repeated. Where two headings read alike, the source gives them in different places.
Assays:
[1] = tested on: recombinant wt SARS-CoV-2-mCherry (rWA1); assay: Recombinant SARS-CoV-2 (rWA1) mCherry inhibition in A549-hACE2 cells; assay type: cell-based; conditions: 48hpi, rWA1 wild-type
MHV 3CL^pro = MHV 3CL^pro (Murine coronavirus, UniProt P0C6X9); conditions: Fig 1A
[2] = tested on: wild-type VSV-G-3CL^pro-L
[3] = tested on: VSV-G-3CL^pro-L L167F (L167F.1); conditions: Fig 3, 24 hours after infection
[4] = tested on: VSV-G-3CL^pro-L L167F-2 (L167F.2); conditions: Fig 3, 24 hours after infection
VSV-G-3CL^pro-L Y54C = conditions: Fig 3, 24 hours after infection
VSV-G-3CL^pro-L N203D = conditions: Fig 3, 24 hours after infection
[5] = tested on: VSV-G-3CL^pro-L G138S/F305L; conditions: Fig 3, 24 hours after infection
[6] = tested on: VSV-G-3CL^pro-L Q192R/F305L; conditions: Fig 3, 24 hours after infection
[7] = tested on: recombinant L167F F305L SARS-CoV-2-mCherry (rWA1); assay: Recombinant SARS-CoV-2 (rWA1) mCherry inhibition in A549-hACE2 cells; conditions: for IC50: L167F F305L rWA1-mCherry, A549-hACE2
[8] = tested on: recombinant L167F SARS-CoV-2-mCherry (rWA1); assay: as above; conditions: L167F rWA1-mCherry, A549-hACE2
wild-type 3CL^pro = wild-type 3CL^pro (Severe acute respiratory syndrome coronavirus 2, UniProt P0DTD1); conditions: wt enzyme, substrate kinetics
[9] = Fig 1C, nirmatrelvir 0.1 µM, 48 hours
[10] = Fig 1C, nirmatrelvir 1 µM, 48 hours
[11] = Fig 3, nirmatrelvir 0.1 µM, 24 hours after infection
[12] = Fig 3, nirmatrelvir 30 µM, 24 hours after infection
[13] = Fig 3, nirmatrelvir 100 µM, 24 hours after infection
[14] = Fig 1C, GC376 0.01 µM, 48 hours

The chains behind the UniProt entries cited, without tags or fusion partners. Residues count along the entry.
UniProt P0C6X9, 3334-3636 limits assumed: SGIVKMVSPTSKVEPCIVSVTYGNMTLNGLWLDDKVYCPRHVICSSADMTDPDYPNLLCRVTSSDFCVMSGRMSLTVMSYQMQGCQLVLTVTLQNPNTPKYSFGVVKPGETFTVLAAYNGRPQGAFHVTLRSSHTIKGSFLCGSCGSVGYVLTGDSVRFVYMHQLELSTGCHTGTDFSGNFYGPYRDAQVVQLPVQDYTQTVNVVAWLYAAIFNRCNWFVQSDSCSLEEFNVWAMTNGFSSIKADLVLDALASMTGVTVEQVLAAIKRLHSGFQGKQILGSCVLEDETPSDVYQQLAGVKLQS

CC(C)(C)[C@H](NC(=O)C(F)(F)F)C(=O)N1C[C@H]2[C@@H]([C@H]1C(=O)N[C@H](C#N)C[C@@H]1CCNC1=O)C2(C)C [Nirmatrelvir, nirmatrelvir]
mCherry normalized ([1]; Nirmatrelvir 0.0625 µM): 0.23 and 0.39 | mCherry normalized ([1]; Nirmatrelvir 0.5 µM): -0.00835 | dsRed positive cells (MHV 3CL^pro; 0.3 µM): 3 and 4 | dsRed positive cells normalized to highest mean (MHV 3CL^pro; 0.3 µM): 0.0007 and 0.0009 | dsRed positive cells (MHV 3CL^pro; 1 µM): 7 and 5 | dsRed positive cells normalized to highest mean (MHV 3CL^pro; 1 µM): 0.0016 and 0.0011 | dsRed positive cells (MHV 3CL^pro; 3 µM): 6 | dsRed positive cells normalized to highest mean (MHV 3CL^pro; 3 µM): 0.0013 | dsRed positive cells (MHV 3CL^pro; 10 µM): 10 and 7 | dsRed positive cells normalized to highest mean (MHV 3CL^pro; 10 µM): 0.0022 and 0.0016 | dsRed positive cells (MHV 3CL^pro; 30 µM): 29 and 26 | dsRed positive cells normalized to highest mean (MHV 3CL^pro; 30 µM): 0.0065 and 0.0058 | dsRed positive cells (MHV 3CL^pro; 100 µM): 556 and 539 | dsRed positive cells normalized to highest mean (MHV 3CL^pro; 100 µM): 0.1246 and 0.1208 | wt titer TCID50 [2, 9]: 75000000 TCID50 and 56200000 TCID50 and 42200000 TCID50 | wt titer TCID50 ([2]; Fig 1C, nirmatrelvir 0.3 µM, 48 hours): 56200000 TCID50 and 31600000 TCID50 | wt titer TCID50 [2, 10]: 23700000 TCID50 and 13300000 TCID50 | wt titer TCID50 ([2]; Fig 1C, nirmatrelvir 100 µM, 48 hours): 422 TCID50 and 562 TCID50 and 750 TCID50 | wt titer TCID50 [2, 11]: 178000000 TCID50 and 316000000 TCID50 | wt titer TCID50 ([2]; Fig 3, nirmatrelvir 3 µM, 24 hours after infection): 75000 TCID50 and 42200 TCID50 | wt titer TCID50 [2, 12]: 133 TCID50 and 75 TCID50 | wt titer TCID50 [2, 13]: 56.2 TCID50 and 42.2 TCID50 | F305L titer TCID50 (VSV-G-3CL^pro-L F305L; [9]): 237000000 TCID50 and 133000000 TCID50 | F305L titer TCID50 (VSV-G-3CL^pro-L F305L; [10]): 56200000 TCID50 and 75000000 TCID50 | F305L titer TCID50 (VSV-G-3CL^pro-L F305L; Fig 1C, nirmatrelvir 3 µM, 48 hours): 56200000 TCID50 and 42200000 TCID50 and 31600000 TCID50 | F305L titer TCID50 (VSV-G-3CL^pro-L F305L; [11]): 422000000 TCID50 and 316000000 TCID50 | F305L titer TCID50 (VSV-G-3CL^pro-L F305L; [12]): 1000 TCID50 and 1330 TCID50 | F305L titer TCID50 (VSV-G-3CL^pro-L F305L; [13]): 133 TCID50 and 178 TCID50 | L167F.1 titer TCID50 ([3]; nirmatrelvir 0.1 µM): 31600000 TCID50 | L167F.1 titer TCID50 ([3]; nirmatrelvir 3 µM): 4220000 TCID50 | L167F.1 titer TCID50 ([3]; nirmatrelvir 10 µM): 1780000 TCID50 and 1000000 TCID50 | L167F.1 titer TCID50 ([3]; nirmatrelvir 30 µM): 133000 TCID50 and 237000 TCID50 | L167F.1 titer TCID50 ([3]; nirmatrelvir 100 µM): 1780 TCID50 and 3160 TCID50 | L167F.2 titer TCID50 ([4]; nirmatrelvir 0.1 µM): 75000000 TCID50 and 100000000 TCID50 | L167F.2 titer TCID50 ([4]; nirmatrelvir 3 µM): 75000 TCID50 and 100000 TCID50 | L167F.2 titer TCID50 ([4]; nirmatrelvir 10 µM): 75000 TCID50 | Y54C titer TCID50 (VSV-G-3CL^pro-L Y54C; nirmatrelvir 1 µM): 17800000 TCID50 and 23700000 TCID50 | Y54C titer TCID50 (VSV-G-3CL^pro-L Y54C; nirmatrelvir 3 µM): 3160000 TCID50 and 2370000 TCID50 | Y54C titer TCID50 (VSV-G-3CL^pro-L Y54C; nirmatrelvir 10 µM): 562000 TCID50 and 422000 TCID50 | Y54C titer TCID50 (VSV-G-3CL^pro-L Y54C; nirmatrelvir 30 µM): 56200 TCID50 and 31600 TCID50 | N203D titer TCID50 (VSV-G-3CL^pro-L N203D; nirmatrelvir 0.1 µM): 10000000 TCID50 | N203D titer TCID50 (VSV-G-3CL^pro-L N203D; nirmatrelvir 3 µM): 4220000 TCID50 | N203D titer TCID50 (VSV-G-3CL^pro-L N203D; nirmatrelvir 30 µM): 1330000 TCID50 and 1000000 TCID50 | N203D titer TCID50 (VSV-G-3CL^pro-L N203D; nirmatrelvir 100 µM): 133000 TCID50 | F305L G138S titer TCID50 ([5]; nirmatrelvir 0.1 µM): 100000000 TCID50 and 178000000 TCID50 | F305L G138S titer TCID50 ([5]; nirmatrelvir 1 µM): 422000000 TCID50 and 562000000 TCID50 | F305L G138S titer TCID50 ([5]; nirmatrelvir 30 µM): 42200000 TCID50 and 56200000 TCID50 | F305L G138S titer TCID50 ([5]; nirmatrelvir 100 µM): 750000 TCID50 and 562000 TCID50 | F305L Q192R titer TCID50 ([6]; nirmatrelvir 3 µM): 178000000 TCID50 and 133000000 TCID50 | F305L Q192R titer TCID50 ([6]; nirmatrelvir 30 µM): 56200000 TCID50 and 100000000 TCID50 | F305L Q192R titer TCID50 ([6]; nirmatrelvir 100 µM): 13300000 TCID50 and 17800000 TCID50 | mCherry normalized ([7]; 72hpi, Nirmatrelvir 1 µM, rWA1 L167F F305L): 0.29 and 0.36 and 0.21 | IC50 ([7]; read-out: IC50 48 hpi, 48 hpi): 20.1 nM | IC50 ([7]; read-out: IC50 72 hpi, 72 hpi): 23.1 nM | IC50 ([8]; read-out: IC50 48 hpi, 48 hpi): 16.2 nM | IC50 ([8]; read-out: IC50 72 hpi, 72 hpi): 20.1 nM

CC[C@H](NC(C)=O)C(=O)N[C@H](C(=O)N[C@@H](CC(C)C)C(=O)N[C@@H](CCC(N)=O)C(=O)Nc1ccc2c(C)cc(=O)oc2c1)C(C)(C)C
Km (wild-type 3CL^pro): 80.6 µM

GC376
wt titer TCID50 [2, 14]: 1780000 TCID50 and 1000000 TCID50 | wt titer TCID50 ([2]; Fig 1C, GC376 0.1 µM, 48 hours): 10000000 TCID50 and 17800000 TCID50 | wt titer TCID50 ([2]; Fig 1C, GC376 1 µM, 48 hours): 17800000 TCID50 and 10000000 TCID50 | wt titer TCID50 ([2]; Fig 1C, GC376 10 µM, 48 hours): 7500000 TCID50 and 13300000 TCID50 | wt titer TCID50 ([2]; Fig 1C, GC376 25 µM, 48 hours): 75000 TCID50 | wt titer TCID50 ([2]; Fig 1C, GC376 75 µM, 48 hours): 237 TCID50 and 133 TCID50 | F305L titer TCID50 (VSV-G-3CL^pro-L F305L; [14]): 7500000 TCID50 and 5620000 TCID50 | F305L titer TCID50 (VSV-G-3CL^pro-L F305L; Fig 1C, GC376 0.1 µM, 48 hours): 13300000 TCID50 | F305L titer TCID50 (VSV-G-3CL^pro-L F305L; Fig 1C, GC376 10 µM, 48 hours): 17800000 TCID50 and 13300000 TCID50 | F305L titer TCID50 (VSV-G-3CL^pro-L F305L; Fig 1C, GC376 25 µM, 48 hours): 10000000 TCID50
